## Primary screen of a compound library

Results are given as percent effect. How 0% and 100% were set is not recorded. Most values in the screen are low, and negative values occur. Many other results are left out here, so strong results are more common than in the screen.

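Phenotypic screen: M. tuberculosis growth, cholesterol and DPPC medium, 4 days; the read-out is not stated. Compounds at 500 µM. Higher reads as more growth inhibition (inferred: compounds with an IC50 in retests scored well above the rest). Size under these conditions: about 18,000 compounds, about 900 of them at 50% or above in at least one test.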

structure	effect
CNS(=O)(=O)c1ccc(C(=O)Nc2ccccc2C)o1	0.6027%
Cc1ccc(C(=O)C2CCN(S(C)(=O)=O)CC2)cc1	-23.61%
CCOc1ccc(-c2cc(N)[nH]n2)cc1	59.83%
O=C(Cn1cc(Cl)cn1)N[C@@H]1CCNC[C@H]1O	-3.35%
CCCC1SCCN1C(=O)c1c[nH]c(=O)cc1C (centres unmarked)	-0.2783%
Cc1cc(C)c(C#N)c(N2C[C@H](C3CC3)[C@@H](N)C2)n1	60.85%
NC(=O)C1CCN(CCSc2ccccc2F)CC1	13.94%
O=C(CN1CCCN(CC2CC2)CC1)N1CCCC1	5.955%
OC(CN1CCCSCC1)c1ccc(F)cc1 (centres unmarked)	28.79%
O=C(NCCN1CCCC1)c1ccc2ccccc2n1	51.07%
NC(=O)N1CCCC(C(=O)NC2CCCCC2)C1 (centres unmarked)	-1.249%
Cc1nc(CNC(=O)CC2=CCCCC2)no1	51.82%
CC[C@@]1(O)CCN(Cc2noc(COC)n2)C[C@H]1O	3.989%
Cc1cccnc1CSc1nnnn1CC1CCCO1 (centres unmarked)	12.34%
Cc1nnc(SCC(N)=O)[nH]1	-7.05%
COc1cc(Br)c(CN)cc1OC	4.522%
O=C(Cn1cnnn1)N(CC1CCOC1)C1CC1 (centres unmarked)	4.104%
CC(NC(=O)CNc1ccccc1F)c1ccco1 (centres unmarked)	64.8%
CN(C)C(=O)CCc1ccc2c(c1)OCCO2	25.3%
CC(C)c1ccc(NC(=O)CN)cc1	60.16%
COCCNC(=O)c1cccc(NC(=O)C(C)(C)C)c1	-1.023%
CN(C)C1CCN(CC(=O)NCCSc2cnn[nH]2)C1 (centres unmarked)	-2.286%
N#Cc1cc(F)ccc1CN1CC[C@@H](O)C1	-10.75%
Cc1ccc(OCCOC(=O)N(C)C)nc1	-4.307%
CCSC1(CNC(=O)c2ccc[nH]2)CCOCC1	22.27%
O=C(Cc1ccc2c(c1)OCCO2)Nc1nncs1	0.6823%
COc1ccc(CC(N)=O)cc1OC	-16.87%
COCCC(CO)NC(=O)NCc1cc(Cl)ccc1C (centres unmarked)	11.21%
Cc1c[nH]c(C(=O)NC2COc3ccccc3C2)n1 (centres unmarked)	22.14%
COc1cccc(S(=O)(=O)NCCc2noc(C)n2)c1	11.73%
Cc1cncc(NCc2ncc[nH]2)c1	-4.441%
O=C(NCCc1ccc(F)c(F)c1)N1CCCC(O)C1 (centres unmarked)	19.11%
Cc1nnc(NCc2ccc3nonc3c2)o1	9.088%
COCC(=O)N1CCN(C(=O)c2ncncc2Br)CC1	-6.324%
COc1cc(CNc2ccc(CO)cn2)cc(OC)c1	41.4%
NC1(c2ccccn2)CC1	10.37%
CCCC1C(=O)NCCN1C(=O)c1ccc(Br)c(O)c1 (centres unmarked)	-4.697%
Cc1cnccc1NCCNC(=O)c1cccc(N)n1	12.69%
Cc1cc(C(=O)N2CCC[C@@H](N)C2)on1	-6.489%
CCCc1cc(C(=O)NCC2COCCO2)cs1 (centres unmarked)	80.95%
C[C@@H]1CN(CCCS(=O)(=O)N(C)C)C[C@@]1(O)C1CCC1	20.45%
O=C(NCc1cn2ccccc2n1)C1CCC1	-26.15%
CCn1ccc(C(=O)NCCSC(F)(F)F)cc1=O	8.844%
CC(C)CS(=O)(=O)CCNC(=O)c1ccc(=O)n(C)c1	-0.7903%
NS(=O)(=O)N1CCN(c2cc(F)ccc2F)CC1	23.47%

The last 4 entries again:

structure	effect
O=C(NCc1cn2ccccc2n1)C1CCC1	-26.15%
CCn1ccc(C(=O)NCCSC(F)(F)F)cc1=O	8.844%
CC(C)CS(=O)(=O)CCNC(=O)c1ccc(=O)n(C)c1	-0.7903%
NS(=O)(=O)N1CCN(c2cc(F)ccc2F)CC1	23.47%

Measurements from “University of Dundee, Small-Polar-MMV Screening Library” (2021), ChEMBL document CHEMBL3988442.